According to paper PMC3006222, “Cholera Toxin B Subunits Assemble into Pentamers - Proposition of a Fly-Casting Mechanism” (2010):

What was measured:
[1] = target: Cholera toxin B subunit (CtxB) (UniProt P01556)
[2] = target: Cholera toxin B subunit (CtxB) (UniProt P01556); conditions: cited from earlier work
[3] = target: Cholera toxin B subunit (CtxB) (UniProt P01556); remark: listed apart in the source
[4] = target: Cholera toxin B subunit (CtxB) (UniProt P01556); conditions: cited from earlier work; remark: listed apart in the source

With Cholera toxin B subunit (CtxB) the half-time of reassembly (Trp-88 fluorescence increase) against pH [1] was 6 pH, the “mid-point pH of reassembly yield (GM1-binding oligomers, 35 uM, 30 min)” value [1] was “mid-point pH of about 5.2 at 35 uM (against about 6.0 at 8.6 uM)” and the “yield of reassembly into GM1-binding species after 30 min at 8.6 uM” value [1] was “only 45%”. For the same substance, the “yield of reassembly into GM1-binding species after 30 min at 35 uM” value [1] was “about 75%”, the threshold pH for acid disassembly of the pentamer [2] was 3.7 pH and the “mid-point pH of reassembly yield (GM1-binding oligomers, 8.6 uM, 30 min)” value [3] was “inflexion point around pH 6.0; yield increases sigmoidally with increasing pH”. For the same substance, the “association rate (kon) of CtxB subunits” value [4] was 3000 M⁻¹ s⁻¹.
